Anti-infective test results gathered from many reports (values: NIAID ChemDB through PubChem).

All rows: toxicity to cultured cells; measure: CC50

Blank or dashed fields: not listed here. Two numbers with a dash give a range or band. CCn is the concentration with n% toxicity to the cells. Neighbouring rows are from separate reports.

SMILES,cells,method,value
CCN1c2ncc(COc3ccncc3)cc2C(=O)N(C)c2ccc(Cl)nc21,C8166-45,MTT,>120 µM
Nc1nc(Cl)c2ncn(C[C@H]3CC[C@@H](CO)C3)c2n1,E6SM,-,≥1 µg/mL
Nc1ncc2ncn(C3OC(C(NC(=O)C4CCCC4N)C(=O)O)CC(O)(C(O)CO)C3O)c2n1,HeLa,-,1000 µg/mL
C[C@H]1c2ccoc2C[C@H]2[C@H]1[C@@H](O)[C@@H](OC(=O)c1ccccc1)[C@@]1(O)C(C)(C)CCC[C@]21C,BC,-,3.6 µg/mL
O=C[C@@H](O)[C@H](O)[C@H](O)[C@H](O)CO,HeLa,-,>200 µg/mL
O=c1[nH]cnc2c1ncn2[C@H]1CC[C@@H](CO)O1,HELA-CD4+,-,3.1 µM
Nc1nc2c(ncn2COC(CO)CO)c(=O)[nH]1,P3HR-1,-,12 µg/mL
C[C@]12CC=C3C=C4[C@@H](O)[C@H](O)[C@@H](N)C[C@]45CC[C@]3(O5)[C@@H]1CC=C2c1ccc2cnncc2c1,HUVEC,ATP,>0.1 µM
CCOC(=O)c1cnc2c(cnn2CC)c1NN=C(C)C,n4mBid,luminescence,>60 µM
Nc1nc2c(ncn2COCCO)c(=O)[nH]1,P3HR-1,-,88 µg/mL
O=[N+]([O-])c1c(Cl)ncnc1NN1CC[N+]2(CC1)CC[N+]1(CCN(Nc3ncnc(Cl)c3[N+](=O)[O-])CC1)CC2,L929,-,>311.4 µg/mL
CC(O)C\C=C/C=C\C=C\CCCCCCc1cccc(O)c1O,PC-3,WST,61.78 µM
COc1cc(/C=C/C(=O)[Se]c2ccccc2)ccc1O,Li-7,WST,>100 µM
CN(C)[C@H]1C[C@@]23CC[C@@]4(O2)C(=CC[C@]2(C)C(c5ccc6ccncc6c5)=CC[C@H]24)C=C3[C@@H](O)[C@@H]1O,HUVEC,ATP,<0.1 µM
O=C(O)c1ccccn1,J774A.1,absorbance,2538 µM
O=C1CCC(c2ccccc2)C(=O)N1CCCN1CCN(c2ccccc2O)CC1,VERO 76,MTT,>100 µM
O=c1[nH]c(=S)n([C@H]2C[C@H](O)[C@@H](CO)O2)cc1I,RPMI8226,-,212 µM
OC(CCl)CN1CC[N+]2(CC1)CC[N+]1(CCN(CC(O)CCl)CC1)CC2,GMK,-,>1040 µg/mL
Cc1cn([C@H]2C[C@H](O)[C@@H](CO)O2)c(=O)[nH]c1=O,RPMI8226,-,1237 µM
O=[N+]([O-])c1c(Cl)ncnc1N1CC[N+]2(CC1)CC[N+]1(CCN(c3ncnc(Cl)c3[N+](=O)[O-])CC1)CC2,K562,-,111.5 µg/mL
Cc1cn([C@H]2C/C(=N\O)[C@@H](CO)O2)c(=O)[nH]c1=O,P3HR-1,-,>100 µg/mL
O=C1CCC(c2ccccc2)C(=O)N1CCCCN1CCN(Cc2ccccc2)CC1,VERO 76,MTT,96 µM
Cc1nc2sccn2c(=O)c1CCN1CCC(=C(c2ccc(F)cc2)c2ccc(F)cc2)CC1,n4mBid,luminescence,17 µM
CCN1c2ncc(CCOc3cc[n+]([O-])cc3)cc2C(=O)N(C)c2ccc(Cl)nc21,C8166-45,MTT,>256 µM
O=c1cc(-c2ccc(O)cc2)oc2cc(O)cc(O)c12,HCT-8,-,>100 µM
O=C1C=CN([C@@H]2O[C@H](CO)[C@@H](O)[C@H]2O)C(=O)C1,VERO 76,-,320 µg/mL
Nc1ccn([C@H]2CC[C@@H](CO)O2)c(=O)n1,BCC-1/KMC,-,259.2 µg/mL
O=c1[nH]c(=S)n([C@@H]2O[C@H](CO)[C@@H](O)[C@@H]2O)cc1I,RPMI8226,-,180 µM
Cc1nc(C2CCCCCC2)c([N+](=O)[O-])c(N2CC[N+]3(CC2)CC[N+]2(CCN(c4nc(C)nc(C5CCCCCC5)c4[N+](=O)[O-])CC2)CC3)n1,L929,-,>261.2 µg/mL
O=c1[nH]c(=O)n([C@H]2C[C@H](O)[C@@H](CO)O2)cc1/C=C/Br,E6SM,-,>400 µg/mL
CCCc1cc(=O)oc2c3c(c4c(c12)OC(C)(C)C=C4)O[C@@H](C)[C@H](C)[C@@H]3O,CEMx174,-,10–20 µM
O=c1cc(-c2ccc(O)cc2)oc2cc(O)cc(O)c12,n4mBid,luminescence,>30 µM
O=C1C[C@@H](c2ccc(O)cc2)Oc2cc(O)cc(O)c21,HCT-8,-,>100 µM
NC(=O)c1ncn([C@@H]2O[C@H](CO)[C@@H](O)[C@H]2O)n1,P3HR-1,-,32 µg/mL
Cn1c2ccccc2c2c3c(c4c5ccccc5n(CCC#N)c4c21)CNC3=O,CD4+ T CELLS,-,14 µM
Nc1nc2c(ncn2COC(CO)CO)c(=O)[nH]1,P3HR-1,-,200 µM
CCN1c2ncc(CCc3ccncc3)cc2C(=O)N(C)c2cccnc21,C8166-45,MTT,>60 µM
CCCCCCCCCCCC(=O)OC[C@@H](O)COP(=O)([O-])OCC[N+](C)(C)C,HeLa,-,150 µg/mL
COc1ccccc1N1CCN(CCCN2C(=O)CCC(c3ccccc3)C2=O)CC1,VERO 76,MTT,>100 µM
CN(C)[C@H]1C[C@@]23CC[C@@]4(O2)C(=CC[C@]2(C)C(c5ccc6ccncc6c5)=CC[C@H]24)CC3[C@@H](O)[C@@H]1O,HUVEC,ATP,0.1–1 µM
CC(O)/C=C/C=C/C=C\CCCCCCCc1cccc(O)c1O,PC-3,WST,86.31 µM
C[N+]1(C)CCN(c2cccc(N3CC[N+](C)(C)CC3)c2[N+](=O)[O-])CC1,L929,-,>330.4 µg/mL
Nc1nc(=O)n([C@@H]2CS[C@H](CO)O2)cc1F,BFU-E,-,38 µM
O=C(CCCl)NN1CC[N+]2(CC1)CC[N+]1(CCN(NC(=O)CCCl)CC1)CC2,GMK,-,>393.5 µg/mL
O=c1[nH]c(=S)n([C@@H]2O[C@H](CO)[C@@H](O)[C@@H]2O)cc1Cl,RPMI8226,-,823 µM
COC(=O)N[C@H](C(=O)N1CCC[C@H]1c1ncc(-c2ccc(-c3ccc(-c4cnc([C@@H]5CCCN5C(=O)[C@@H](NC(=O)OC)C(C)C)[nH]4)cc3)cc2)[nH]1)C(C)C,SJCRH30,ATP,14.5 µM
COc1ccc2cc3[n+](cc2c1OC)CCc1cc2c(cc1-3)OCO2,HeLa,-,<10 µg/mL
COC(=O)N[C@H](C(=O)N1CCC[C@H]1c1nc2ccc(-c3csc4c(-c5ccc(-c6cnc([C@@H]7CCCN7C(=O)[C@H](NC(=O)OC)c7ccccc7)[nH]6)cc5)csc34)cc2[nH]1)C(C)C,Zluc,resazurin,>100 µM
NC(=NC1CCCC1)c1ccc(-c2ccc(-c3ccc(C(N)=NC4CCCC4)cc3)o2)cc1,A2780 ovarian carcinoma,-,12 µM
O=[N+]([O-])c1ccc(N2CC[N+]3(CC2)CC[N+]2(CCN(c4ccc([N+](=O)[O-])c5nonc45)CC2)CC3)c2nonc12,GMK,-,>320.8 µg/mL
Cc1cn([C@@H]2O[C@H](CO)[C@@H](O)[C@@H]2O)c(=S)[nH]c1=O,RPMI8226,-,>365 µM
C[C@H](Cn1cnc2nc(N)nc(N(C)C)c21)OCP(=O)(O)O,P3HR-1,-,5.5 µg/mL
Nc1nc2c(nnn2C[C@H]2CC[C@@H](CO)C2)c(=O)[nH]1,E6SM,-,>200 µg/mL
Cc1cc(Cl)c([N+](=O)[O-])c(N2CC[N+]3(CC2)CC[N+]2(CCN(c4nc(C)cc(Cl)c4[N+](=O)[O-])CC2)CC3)n1,GMK,-,>313.3 µg/mL
CN(C)[C@H]1C[C@@]23CC[C@@]4(O2)C(=CC[C@]2(C)C(c5ccc6ccncc6c5)C(=O)C[C@@H]42)C=C3[C@@H](O)[C@@H]1O,HUVEC,ATP,<0.1 µM
O=C1CCC(c2ccccc2)C(=O)N1CCCN1CCN(c2ccccn2)CC1,VERO 76,MTT,>100 µM
CCCc1cc(=O)oc2c3c(c4c(c12)OC(C)(C)C=C4)O[C@H](C)[C@@H](C)[C@@H]3O,CEMx174,-,10–20 µM
CNCCCC1c2ccccc2C=Cc2ccccc21,n4mBid,luminescence,16 µM
O=C(/C=C/c1ccc(O)cc1)[Se]c1ccccc1,Li-7,WST,>100 µM
Nc1ccn([C@@H]2CS[C@H](CO)O2)c(=O)n1,P3HR-1,-,10 µM
CCCCc1oc2ccccc2c1C(=O)c1cc(I)c(OCCN(CC)CC)c(I)c1,n4mBid,luminescence,14 µM
O=C(O[C@@H]1Cc2c(O)cc(O)cc2O[C@@H]1c1cc(O)c(O)c(O)c1)c1cc(O)c(O)c(O)c1,HCT-8,-,>100 µM
O=C(/C=C/C=C/c1ccc([N+](=O)[O-])cc1)[Se]c1ccccc1,HLE,WST,67.1 µM
CN(C)[C@H]1C[C@@]23CC[C@@]4(O2)C(=CC[C@]2(C)C(c5ccc6ncncc6c5)=CC[C@H]24)C=C3[C@@H](O)[C@@H]1O,HUVEC,ATP,<0.1 µM
O=C1C(=O)c2ccccc2-c2ccccc21,HEP2 Cell Line,MTT / absorbance,10 µg/mL
O=C(/C=C/C=C/c1ccccc1)[Se]c1ccccc1,Li-7,WST,>100 µM
Nc1ccn([C@H]2CO[C@@H](CO)O2)c(=O)n1,P3HR-1,-,150 µM
Nc1nc(Cl)c2nnn(C[C@H]3CC[C@@H](CO)C3)c2n1,E6SM,-,≥400 µg/mL
C[C@H]1[C@@H](CCCOP(=O)(O)Oc2ccccc2)O[C@@H]2OC3(C)CC[C@H]4[C@H](C)CC[C@@H]1[C@@]24OO3,HCT116,-,43.5 µM
Nc1nc(NC2CC2)c2ncn([C@H]3C=C[C@@H](CO)C3)c2n1,2.2.15,-,130 µM
O=P(O)(O)COCCn1cnc2c(N3CCCCC3)ncnc21,P3HR-1,-,>100 µg/mL
C[C@@H]1O[C@@H](OC[C@H]2O[C@@H](Oc3c(-c4ccc(O)c(O)c4)oc4cc(O)cc(O)c4c3=O)[C@H](O)[C@@H](O)[C@@H]2O)[C@H](O)[C@H](O)[C@H]1O,HCT-8,-,>100 µM

Repeating the first 8 entries:

SMILES	cells	method	value
CCN1c2ncc(COc3ccncc3)cc2C(=O)N(C)c2ccc(Cl)nc21	C8166-45	MTT	>120 µM
Nc1nc(Cl)c2ncn(C[C@H]3CC[C@@H](CO)C3)c2n1	E6SM	-	≥1 µg/mL
Nc1ncc2ncn(C3OC(C(NC(=O)C4CCCC4N)C(=O)O)CC(O)(C(O)CO)C3O)c2n1	HeLa	-	1000 µg/mL
C[C@H]1c2ccoc2C[C@H]2[C@H]1[C@@H](O)[C@@H](OC(=O)c1ccccc1)[C@@]1(O)C(C)(C)CCC[C@]21C	BC	-	3.6 µg/mL
O=C[C@@H](O)[C@H](O)[C@H](O)[C@H](O)CO	HeLa	-	>200 µg/mL
O=c1[nH]cnc2c1ncn2[C@H]1CC[C@@H](CO)O1	HELA-CD4+	-	3.1 µM
Nc1nc2c(ncn2COC(CO)CO)c(=O)[nH]1	P3HR-1	-	12 µg/mL
C[C@]12CC=C3C=C4[C@@H](O)[C@H](O)[C@@H](N)C[C@]45CC[C@]3(O5)[C@@H]1CC=C2c1ccc2cnncc2c1	HUVEC	ATP	>0.1 µM